Data published in publication PMC7051184, “C9orf72 arginine-rich dipeptide repeat proteins disrupt karyopherin-mediated nuclear import” (eLife, 2020).

Sequences of proteins named here, by UniProt entry; tags and fusion partners are left off.
UniProt Q14974, whole entry: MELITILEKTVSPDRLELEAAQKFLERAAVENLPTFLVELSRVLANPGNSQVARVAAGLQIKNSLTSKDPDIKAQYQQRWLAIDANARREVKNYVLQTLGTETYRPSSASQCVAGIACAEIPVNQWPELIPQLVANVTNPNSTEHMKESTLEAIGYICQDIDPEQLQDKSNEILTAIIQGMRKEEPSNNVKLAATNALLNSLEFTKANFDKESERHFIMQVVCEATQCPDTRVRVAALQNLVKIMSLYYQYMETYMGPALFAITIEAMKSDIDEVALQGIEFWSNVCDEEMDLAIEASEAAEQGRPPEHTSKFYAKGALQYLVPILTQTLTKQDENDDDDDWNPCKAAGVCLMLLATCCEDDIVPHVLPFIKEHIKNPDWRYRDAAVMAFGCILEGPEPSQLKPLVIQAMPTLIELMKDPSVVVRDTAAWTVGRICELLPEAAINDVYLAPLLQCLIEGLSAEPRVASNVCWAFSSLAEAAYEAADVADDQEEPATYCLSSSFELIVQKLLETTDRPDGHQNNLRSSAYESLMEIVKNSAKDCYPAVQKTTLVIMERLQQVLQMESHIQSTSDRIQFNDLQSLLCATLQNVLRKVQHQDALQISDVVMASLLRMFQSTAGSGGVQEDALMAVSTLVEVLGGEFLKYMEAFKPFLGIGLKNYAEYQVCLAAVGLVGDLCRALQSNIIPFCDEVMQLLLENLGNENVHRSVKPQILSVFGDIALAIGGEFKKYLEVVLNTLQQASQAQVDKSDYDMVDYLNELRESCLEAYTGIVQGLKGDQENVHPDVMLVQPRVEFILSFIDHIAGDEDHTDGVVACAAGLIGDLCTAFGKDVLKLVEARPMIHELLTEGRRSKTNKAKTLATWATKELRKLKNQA

Biological target: T1, importin β (KPNB1) (Homo sapiens, UniProt Q14974)
T1 construct: pET30a 6His-S-Importin β(1-876); 6His (N); S-tag (N); made in house; host or cells: E. coli BL21(DE3)
Experiment: Rango FRET detection of importin β-Rango dissociation
Type: binding
Conditions: DPR 10-mers added to importin β-bound Rango
Method: Full-length human importin β was expressed from pET30a-WT importin β (pKW485; [Chi et al., 1997]) at the Protein Expression Laboratory (PEL, National Cancer Institute, Frederick, MD). The transformed BL21DE3 cells were grown at 37°C in an 80L Bioflow 500 bioreactor (New Brunswick Scientific, Edison, NJ) until OD600nm = 0.6, cooled to 22°C and the expression was induced with 0.3 mM IPTG. After 12 hr induction, cells were harvested with the CARR continuous flow centrifuge and lysed in PBS with 10 mM imidazole and 5 mM TCEP with a 110EH Microfluidizer (Microfluidics, Westwood, MA) using 2 passes at 10,000 PSI under chilled conditions. […] Measurement of Rango fluorescence emission in a spectrometer (see below) was used to verify the FRET-off state of the Rango/importin β mixture before freezing. […]
FRET assays for DPR-induced dissociation of the importin β-Rango complex were performed using a mix of 5 µM Rango-2/α1 (pK188) and 12.5 µM importin β (pKW485) prepared as described above. […] Peak emissions were recorded at 480 nm (donor) and 535 nm (acceptor) in all samples, and background emission subtracted at the same wavelengths in the blank. The FRET signal was calculated as the ratio of background-subtracted acceptor/donor emissions. The signal detected in the untreated sample (20 nM Rango and 50 nM importin β-only, the lowest FRET), was then subtracted from the resulting values. […]

N=C(N)NCCC[C@H](NC(=O)CNC(=O)[C@H](CCCNC(=N)N)NC(=O)CNC(=O)[C@H](CCCNC(=N)N)NC(=O)CNC(=O)[C@H](CCCNC(=N)N)NC(=O)CNC(=O)[C@H](CCCNC(=N)N)NC(=O)CNC(=O)[C@H](CCCNC(=N)N)NC(=O)CNC(=O)[C@H](CCCNC(=N)N)NC(=O)CNC(=O)[C@H](CCCNC(=N)N)NC(=O)CNC(=O)[C@H](CCCNC(=N)N)NC(=O)CNC(=O)[C@H](CCCNC(=N)N)NC(=O)CN)C(=O)O [GR10]
Effect on Rango FRET: dose-dependent increase in FRET
